In the experiment the test system is PIGA-null TF-1 cells. Put plainly: Modified Ham test (WST-1 cell viability after serum exposure). A general note: Formazan colour is commonly taken as a measure of viable cells.

B1: eculizumab (antibody, chains of the INN, looked up)
heavy: QVQLVQSGAEVKKPGASVKVSCKASGYIFSNYWIQWVRQAPGQGLEWMGEILPGSGSTEYTENFKDRVTMTRDTSTSTVYMELSSLRSEDTAVYYCARYFFGSSPNWYFDVWGQGTLVTVSSASTKGPSVFPLAPCSRSTSESTAALGCLVKDYFPEPVTVSWNSGALTSGVHTFPAVLQSSGLYSLSSVVTVPSSNFGTQTYTCNVDHKPSNTKVDKTVERKCCVECPPCPAPPVAGPSVFLFPPKPKDTLMISRTPEVTCVVVDVSQEDPEVQFNWYVDGVEVHNAKTKPREEQFNSTYRVVSVLTVLHQDWLNGKEYKCKVSNKGLPSSIEKTISKAKGQPREPQVYTLPPSQEEMTKNQVSLTCLVKGFYPSDIAVEWESNGQPENNYKTTPPVLDSDGSFFLYSRLTVDKSRWQEGNVFSCSVMHEALHNHYTQKSLSLSLG
light: DIQMTQSPSSLSASVGDRVTITCGASENIYGALNWYQQKPGKAPKLLIYGATNLADGVPSRFSGSGSGTDFTLTISSLQPEDFATYYCQNVLNTPLTFGQGTKVEIKRTVAAPSVFIFPPSDEQLKSGTASVVCLLNNFYPREAKVQWKVDNALQSGNSQESVTEQDSKDSTYSLSSTLTLSKADYEKHKVYACEVTHQGLSSPVTKSFNRGEC
modifications: in PNH patient serum
B1: the “modified Ham test result of acute Shiga-toxin associated HUS serum mixed with eculizumab containing serum” value was “normalization of the modified Ham test results in all ratios”.

Source of the values: patent US11499964B2, “Assay to diagnose and treat disorders of the alternative pathway of complement activation” (THE JOHNS HOPKINS UNIVERSITY, priority 2015, dated 2022).
